Data on two compounds can be found in patent publication US12427135B2 (priority 2019, dated 2025).

Like-named read-outs stand apart in the source and are kept apart here.

The assay addresses RTA (Ricinus communis (Castor bean), UniProt P02879). In words: biochemical. The format is binding.

`Cc1cc(C)c(-c2ccc(C(=O)O)s2)c(C)c1` [RU-NT-075]: the Kd (read-out: KD) is 43 µM. As to `O=C(O)c1cc2c(s1)-c1ccccc1CC2` [drawing 385], the Kd was 210 µM.

Broadly, the Kd is a measure of binding affinity in units of concentration.
